Results as given in PMC7765321, “Novel Isoniazid-Carborane Hybrids Active In Vitro against Mycobacterium tuberculosis” (Pharmaceuticals, 2020).

System: HaCaT cells

## N′-((1,12-dicarba-closo-dodecaboran-1-yl)ethyl)isonicotinohydrazide [Compound 25]
24 h at MIC50 for ΔkatG
  cell viability (flow cytometry; lower left quadrant Fig. 7C): 87.45%
24 h at MIC99 for ΔkatG
  cell viability (flow cytometry; lower left quadrant Fig. 7C): 82.20%

Where two headings read alike, the source gives them in different places.
